Compound potency records, mixed from different reports. Data source: NIAID ChemDB in PubChem.

Shared fields: whole-cell or culture tests; species: Candida albicans; endpoint: MIC

a–b is a range or a potency band.

compound | read by | conditions | strain or isolate | value
O=C(O)c1ccc(C[C@H](C(=O)O)[C@@H](O)C(=O)O)cc1 |  |  | ATCC 10231 | >4 µg/mL
O=C(NCc1ccco1)c1cccc(C(=O)NCc2ccco2)n1 |  |  |  | 75 µg/mL
CCCCCOc1ccc(-c2ccc(-c3ccc(C(=O)N[C@H]4C[C@@H](O)[C@@H](OCCCCCCN)NC(=O)[C@@H]5[C@@H](O)[C@@H](C)CN5C(=O)[C@H]([C@H](C)O)NC(=O)[C@H]([C@H](O)[C@@H](O)c5ccc(O)cc5)NC(=O)[C@@H]5C[C@@H](O)CN5C(=O)[C@H]([C@H](C)O)NC4=O)cc3)cc2)cc1 |  |  |  | 0.312 µg/mL
O=C(Nc1ccc2oc(-c3ccccc3)nc2c1)OCc1ccccc1 |  |  | RSKK 628 | 50 µg/mL
CSC1=C(Nc2ccc(Br)c(C)c2)C(=O)c2cccnc2C1=O |  |  | ATCC 10231 | 3.2 µg/mL
COC(=O)c1c(C)oc2cc(C(=O)C(Br)Br)c(O)c(Br)c12 |  |  | ATCC 10231 | 100 µg/mL
O/N=C(\COc1ccccc1)c1ccccc1 | broth dilution | 24 h | ATCC 10231 | >125 µg/mL
O=Cc1cc(-c2ccc(Cl)cc2Cl)on1 |  |  |  | 12.5 µg/mL
COC1C2OC3(OCC45CC6C(C)CCC6C6(C=O)CC4C=C(C(C)C)C65C(=O)O)OC2OC1C3O |  |  |  | 16 µg/mL
CC(=O)Nc1ccc2nc(NC(=O)CSc3nnc(-c4ccc5ncccc5c4)o3)sc2c1 | agar |  |  | 50 µg/mL
CN[C@@H]1[C@H](O[C@@H]2OC[C@@H](O)[C@H](O)[C@H]2O)[C@@H](O)[C@H](O[C@H]2c3cc(C)c(C(=O)N[C@H](C)C(=O)O)c(O)c3-c3c(cc4c(c3O)C(=O)c3cc(OC)cc(O)c3C4=O)[C@@H]2O)O[C@@H]1C |  |  | 83-2-14 | 12.5 µg/mL
C[C@H]1[C@H](O)[C@@H](C)/C=C/C=C/C=C/C=C/C=C/C=C/C=C/[C@H](O[C@@H]2O[C@H](C)[C@@H](O)[C@H](N)[C@@H]2O)C[C@@H]2O[C@](O)(C[C@@H](O)C[C@@H](O)CC[C@H](O)[C@@H](O)C[C@@H](O)CC(=O)O[C@H]1C)C[C@H](O)[C@H]2C(=O)O | broth dilution | 48 h | ATCC 90028 | 1 µg/mL
Clc1ccc(-c2cn3nc(Cl)sc3n2)cc1 | agar diffusion |  |  | 50 µg/mL
O=C(N=Nc1c(O)[nH]c2cccc(Cl)c12)Nc1ccccc1Cl |  |  |  | >1.56 µg/mL
O=Nc1c(-c2ccc(Cl)cc2)nc2ncccn12 |  |  |  | 2 µg/mL
Clc1ccc(C(CCOc2ccccc2)Cn2ccnc2)c(Cl)c1 |  |  |  | 10 µg/mL
CCc1ccc2c(C)c(C(=O)c3ccc(Cl)cc3)oc2c1 |  |  | NRRL Y-27077 | 50 µg/mL
CCc1ccc(-c2nc3cc(NC(=O)CCc4ccccc4)ccc3o2)cc1 |  |  | RSKK 628 | 12.5 µg/mL
COc1cc(C(=O)Nc2ccc3nn(C4CCCCC4)nc3c2)cc(OC)c1OC |  |  | ATCC 10231 | 50 µg/mL
CCn1cc(C(=O)O)c(=O)c2cc(F)c(N3C(=O)C(C)NC(=O)C3C)cc21 |  |  | ATCC 2091 | 30.4 µg/mL
Cc1c(-c2nc3cc(C(C)(C)C)cc(C(C)(C)C)c3o2)[nH]c2ccccc12 |  |  | ATCC 44859 | >500 µM
Cc1c(/C(=N/O)c2ccccc2)oc2ccc(Cl)cc12 |  |  | Clinical isolate | 12.5 µg/mL
Cc1c(S(=O)(=O)c2ccccc2)[n+](=O)c2ccccc2n1[O-] |  |  | Clinical isolate 17 | 15.6 µg/mL
CCCCCCCCCCCCC/C=C\C1=N[C@H]1C(=O)OC |  |  | UCD-FR1 | 8 µg/mL
CCCCN1C(=O)C2(CCN(Cc3ccccc3)CC2=O)Sc2ccccc21 |  |  | ATCC 10231 | ≥100 µg/mL
CC(C)(C)c1cc(C(C)(C)C)c2oc(Cc3ccc(O)cc3)nc2c1 |  |  | ATCC 44859 | >500 µM
O=C(c1ccc(Cl)cc1)c1oc2ccc(Cl)cc2c1Cn1ccnc1 |  |  | Clinical isolate | 25 µg/mL
Clc1ccc(OCC(Cn2ccnc2)c2ccc(Cl)cc2)cc1 |  |  |  | >100 µg/mL
O=C(Nc1ccc2oc(-c3ccc(F)cc3)nc2c1)SCc1ccccc1 |  |  | RSKK 628 | 25 µg/mL
CSC1=C(Nc2cccc(C(C)=O)c2)C(=O)c2cccnc2C1=O |  |  | ATCC 10231 | 25 µg/mL
COc1ccc(OCC(=O)c2ccccc2)cc1 | broth dilution | 48 h | ATCC 10231 | >125 µg/mL
O=C(Nc1ccc2oc(-c3ccccc3)nc2c1)SCc1ccccc1 |  |  | RSKK 628 | 50 µg/mL
CCCCCCCCCCCCC#CCCC#CC(=O)O |  |  | ATCC 14053 | 20 µM
O=C(COc1cccc(Cl)c1)c1ccccc1 | broth dilution | 24 h | ATCC 10231 | >125 µg/mL
CCn1cc(C(=O)O)c(=O)c2cc(F)c(N3CC(=O)NCC3=O)cc21 |  |  | ATCC 2091 | 25 µg/mL
CC(=O)NNC(=S)Nn1c(-c2ccccc2)nc2ccccc2c1=O |  |  | ATCC 753 | 100 µg/mL
CCCCCOc1ccc(-c2ccc(-c3ccc(C(=O)N[C@H]4C[C@@H](O)[C@@H](OCCN(C)CCCC)NC(=O)[C@@H]5[C@@H](O)[C@@H](C)CN5C(=O)[C@H]([C@H](C)O)NC(=O)[C@H]([C@H](O)[C@@H](O)c5ccc(O)cc5)NC(=O)[C@@H]5C[C@@H](O)CN5C(=O)[C@H]([C@H](C)O)NC4=O)cc3)cc2)cc1 |  |  |  | 0.625 µg/mL
Clc1ccc(OCC(Cn2ccnc2)c2ccc(Cl)cc2Cl)cc1 |  |  |  | 10 µg/mL
O/N=C(/COc1cccc(Cl)c1)c1ccccc1 | broth dilution | 48 h | ATCC 10231 | >125 µg/mL
OC(Cn1cncn1)(Cn1cncn1)c1ccc(F)cc1F |  |  | ATCC 10231 | 25 µg/mL
Clc1ccc(C(COc2ccccc2Cl)Cn2ccnc2)cc1 |  |  |  | 100 µg/mL
CCOc1ccc(NC(=O)CSc2nnc(-c3ccc4ncccc4c3)o2)cc1 | agar |  |  | 25 µg/mL
O=C(Cc1ccccc1)NNC(=S)Nn1c(-c2ccccc2)nc2ccccc2c1=O |  |  | ATCC 753 | 100 µg/mL
CC(=O)/C=C1\Sc2ccccc2N1C1CCCCCC1 |  |  | ATCC 10231 | 50 µg/mL
COc1ccc2nc(NC(=O)CSc3nnc(-c4ccc5ncccc5c4)o3)sc2c1 | agar |  |  | 25 µg/mL
Nc1[nH]c(=O)ncc1F |  |  | 2718 | 0.13 µg/mL
Cc1ccc(NC(=O)CSc2nnc(-c3ccc4ncccc4c3)o2)cc1 | agar |  |  | 100 µg/mL
O=C(O)c1cccc(C(=O)NCc2ccco2)n1 |  |  |  | 226 µg/mL
CCCCCCCCCC#CCCC#CC(=O)O |  |  | ATCC 60913 | 11.5 µM
O=[N+]([O-])c1nn2cc(-c3ccc(F)cc3)nc2s1 | agar diffusion |  |  | 50 µg/mL
Cc1c(Cl)[n+](=O)c2cc(Cl)ccc2n1[O-] |  |  | Clinical isolate 23 | 15.6 µg/mL
CN(C)c1ccc(-c2nc3cc(NC(=O)OCc4ccc(Cl)cc4)ccc3o2)cc1 |  |  | RSKK 628 | 12.5 µg/mL
O=C(Nc1ccc2nn(C3CCCCC3)nc2c1)c1ccc(Cl)c(Cl)c1 |  |  | ATCC 10231 | >200 µg/mL
O=C(c1ccc(Cl)cc1)c1oc2ccc(Cl)cc2c1Cn1cncn1 |  |  | NRRL Y-27077 | 25 µg/mL
O=Cc1cc(-c2c(Cl)cccc2Cl)no1 |  |  |  | 25 µg/mL
O=C(Nc1ccc2nn(C3CCCCC3)nc2c1)c1ccccc1 |  |  | ATCC 10231 | >200 µg/mL
Cc1c(Sc2ccccc2)[n+](=O)c2cc(Cl)ccc2n1[O-] |  |  | Clinical isolate 12 | 31.25 µg/mL
O=C(COc1ccccc1)N=Nc1c(O)[nH]c2cc(Cl)ccc12 |  |  |  | >1.56 µg/mL
C[C@H]1[C@H](O)[C@@H](C)/C=C/C=C/C=C/C=C/C=C/C=C/C=C/[C@H](O[C@@H]2O[C@H](C)[C@@H](O)[C@H](N)[C@@H]2O)C[C@@H]2O[C@](O)(C[C@@H](O)C[C@@H](O)CC[C@H](O)[C@@H](O)C[C@@H](O)CC(=O)O[C@H]1C)C[C@H](O)[C@H]2C(=O)O |  |  | ATCC 32354 | 0.4 µg/mL
COc1ccc(-c2cn3nc(Cl)sc3n2)cc1 | agar diffusion |  |  | 75 µg/mL
CCNC(=S)Nn1cnc2ccccc2c1=O |  |  | ATCC 753 | 100 µg/mL
CC(C)CC(NC(=O)c1nc2c(C(C)(C)C)cc(C(C)(C)C)cc2o1)C(=O)O |  |  | ATCC 44859 | >500 µM
COc1ccc(-c2cc3cc(CCCO)cc(OC)c3o2)cc1OC |  |  | ICB 12 | 12 µg/mL
O/N=C(/COc1ccc(F)cc1)c1ccccc1 | broth dilution | 48 h | ATCC 10231 | 31.25 µg/mL
C[C@@H]1[C@H](O)[C@@H](C)/C=C/C=C/C=C/C=C/C=C/C=C/C=C/[C@H](O[C@@H]2O[C@H](C)[C@@H](O)[C@H](N)[C@@H]2O)C[C@@H]2O[C@](O)(C[C@@H](O)C[C@@H](O)[C@H](O)CC[C@@H](O)C[C@@H](O)CC(=O)O[C@H]1C)C[C@H](O)[C@H]2C(=O)O |  |  | ATCC 10231 | 2.5 µg/mL
COc1cccc(OCC(=O)c2ccccc2)c1 | broth dilution | 24 h | ATCC 10231 | >125 µg/mL
CCCCCCCCCCCCC/C=C\C1=NC1C(=O)OC |  |  | ATCC 14503 | 2–3 µg/mL
O=[N+]([O-])c1ccc(-c2cn3nc(Cl)sc3n2)cc1 | agar diffusion |  |  | >75 µg/mL
O=C(Cc1ccccc1)Nc1ccc2oc(-c3ccc(F)cc3)nc2c1 |  |  | RSKK 628 | 12.5 µg/mL
Cc1ccc2c(c1)S/C(=C\C(=O)C(C)C)N2C1CCC1 |  |  | ATCC 10231 | >100 µg/mL
CC(=O)c1ccc(-c2nc3ncccn3c2N=O)cc1 |  |  |  | 9 µg/mL
O=C(N=Nc1c(O)[nH]c2cc(Cl)ccc12)Nc1ccccc1Cl |  |  |  | 1.56 µg/mL
O=[N+]([O-])c1nn2cc(-c3ccc(Cl)cc3)nc2s1 | agar diffusion |  |  | >75 µg/mL
CCCC(=O)/C=C1\Sc2ccccc2N1/C1=C/CCCCCCCCCC1 |  |  | ATCC 10231 | >100 µg/mL
Cc1onc(-c2cccc(Br)c2)c1C=O |  |  |  | 50 µg/mL
COc1cc(CCCO[C@@H]2O[C@H](CO)[C@@H](O)[C@H](O)[C@H]2O)cc2cc(-c3ccc4c(c3)OCO4)oc12 |  |  | ICB 12 | 15 µg/mL
O=C(COc1ccc(Br)cc1)N=Nc1c(O)[nH]c2cc(Cl)ccc12 |  |  |  | >1.56 µg/mL
CC(C)S(=O)(=O)N1CCN(c2cnn(-c3cc(F)cc(F)c3)c(=O)c2OC2CCC(F)C2)CC1 | broth dilution |  | C697 | 0.06 µg/mL
COC(=O)C(C)NC1=C(O)c2ccccc2C(=O)C1=O |  |  |  | >50 µg/mL
O=C(Nc1ccc2nn(C3CCCCC3)nc2c1)c1ccc([N+](=O)[O-])cc1 |  |  | ATCC 10231 | 100 µg/mL
CCCCCCCCCC/C=C\C1=N[C@H]1C(=O)OC |  |  | 96-489 | 2–3 µg/mL
CC(=O)c1ccc(-c2cn3cccnc3n2)cc1 |  |  |  | 121 µg/mL
Clc1ccc(OCC(Cn2ccnc2)c2ccc(Br)cc2)cc1 |  |  |  | 100 µg/mL
O=Nc1c(-c2ccc(Br)cc2)nc2ncccn12 |  |  |  | 5 µg/mL
Cc1c(Sc2ccccc2)[n+](=O)c2cc(C(F)(F)F)ccc2n1[O-] |  |  | Clinical isolate 15 | 15.6 µg/mL
CSC1=C(Nc2ccc(Cl)c([N+](=O)[O-])c2)C(=O)c2cccnc2C1=O |  |  | ATCC 10231 | 6.3 µg/mL

Rows are shuffled and stem from different studies. An empty or dashed field is not shown.